Measured values from several laboratories, pooled; numbers as filed in NIAID ChemDB.

All rows: tests in culture; species: Herpes simplex virus 1; measure: EC50

An empty or dashed field is not shown.

SMILES	cell line	strain	read by	result
Oc1ccc([C@@H]2c3c(O)cc(O)cc3[C@H]3c4c(cc(O)cc4[C@H]2[C@@H]2c4cc(O)cc5c4[C@@H](c4cc(O)cc(O)c4[C@H]2c2ccc(O)cc2)[C@H](c2ccc(O)cc2)O5)O[C@@H]3c2ccc(O)cc2)cc1	VERO	-	MTT	17.3 µM
Nc1nc2c(ncn2CCCC(CO)CO)c(=O)[nH]1	VERO	7935-72	plaque count	0.2 µM
OC[C@H]1O[C@H](c2ccc(F)cc2F)C[C@@H]1O	E6SM	F	cytopathic effect	>400 µg/mL
OCCCOCc1c(Cl)nc2cc(Cl)c(Cl)cn12	BSC-1	KOS	ELISA	>100 µM
C[C@@H]1CC[C@]2(C(=O)O)CC[C@]3(C)C(CCC4[C@@]5(C)CC[C@H](O)C(C)(C)C5CC[C@]43C)C2[C@H]1C	-	-	MTT	6.2 µg/mL
O=C1Nc2ccc(F)cc2C1=O	VERO	-	virus yield	<50 µM
O=c1[nH]c(=O)n([C@@H]2O[C@H](CO)[C@@H](O)[C@@H]2O)cc1/C=C/Br	ESM	KOS	cytopathic effect	0.007 µg/mL
CC(C)(C)NC1=[N+]=CCc2c(-c3ccnc(NC4CCCC4)n3)c(-c3ccc(F)cc3)nn21	-	-	hybridisation	7 µM
OCCSCc1c(Cl)nc2cc(Cl)c(Cl)cn12	BSC-1	KOS	ELISA	60 µM
Fc1cccc(-c2cc3c(-c4ccnc(NC5CCCC5)n4)ccc(NC4CCCC4)n3n2)c1	VERO 76	SC16	antigen / hybridisation	0.23 µM
Nc1cc([C@H]2C[C@H](O)[C@@H](CO)O2)c(F)cc1F	E6SM	F	cytopathic effect	>400 µg/mL
CC[C@@H](NC(=O)[C@@H](CC(=O)[C@@H](CC(=O)[C@@H](NC(=O)[C@H](C(C)C)N(C)C(=O)[C@H](C)CC1CCCCC1)C(C)(C)C)CC(=O)C(C)(C)C)C1(C(=O)O)CCCC1)C(C)(C)C	BHK-21/C13	PAA-R 5	ELISA	0.14 µM
O=C1Nc2cc(Br)cc(Br)c2C1=O	VERO	-	virus yield	>50 µM
O=C(NCc1ccc(Cl)cc1)c1cn2c3c(cc(CN4CCOCC4)cc3c1=O)OC(c1cccnc1)C2	HFF	L5047716 ACV resistant	plaque count	4.7 µM
CCSCc1c(Cl)nc2cc(Cl)c(Cl)cn12	BSC-1	KOS	ELISA	>100 µM
CCCCNc1nccc(-c2c(-c3ccc(F)cc3)nn3c(NC4CCCC4)ncnc23)n1	-	-	hybridisation	1 µM
Oc1ccc([C@@H]2c3c(O)cc(O)cc3[C@@H]3c4c(cc(O)cc4[C@H]2[C@H]2c4cc(O)cc5c4[C@@H](c4cc(O)cc(O)c4[C@H]2c2ccc(O)cc2)[C@@H](c2ccc(O)cc2)O5)O[C@@H]3c2ccc(O)cc2)cc1	VERO	-	MTT	8.7 µM
OCCOCc1c(Cl)nc2cc(Cl)c(Cl)cn12	BSC-1	KOS	ELISA	>100 µM
Nc1nc2c(ncn2CC(CO)CCO)c(=O)[nH]1	VERO	C1 (101)	plaque count	1.7 µM
Nc1ccc(-c2cc3c(-c4ccnc(NC5CCC5)n4)ccc(NC4CCC4)n3n2)cc1	VERO 76	SC16	antigen / hybridisation	1.07 µM
Nc1ccn([C@@H]2O[C@H](CO)[C@@H](O)[C@@H]2O)c(=O)n1	VERO	KOS	cytopathic effect	0.15 µg/mL
CCCCC(C)(C)[C@H](O)/C=C/[C@H]1C=CC(=O)[C@@H]1CCCCCCC(=O)O	HFF	H198	hybridisation	4.6 µg/mL
Nc1nc2c(ncn2CCC(CO)CO)c(=O)[nH]1	MRC-5	SC16	antigen	0.6 µg/mL
Oc1ccc([C@H]2Oc3cc(O)cc4c3[C@@H]2c2cc(O)cc3c2[C@@H](c2cc(O)cc5c2[C@@H]4[C@H](c2ccc(O)cc2)O5)[C@H](c2ccc(O)cc2)O3)cc1	VERO	-	MTT	27.4 µM
OC[C@H]1O[C@H](c2cc(I)c(F)cc2F)C[C@@H]1O	E6SM	KOS	cytopathic effect	>400 µg/mL
Cc1ccc(Cc2c(O)cc(O)cc2[C@@H]2c3c(cc(O)cc3[C@H](C)[C@@H](c3ccc(O)cc3)c3c(O)cc(O)cc3C[C@H](Oc3cccc(O)c3)c3ccc(O)cc3)O[C@H]2c2ccc(O)cc2)cc1.O	VERO	-	MTT	17.9 µM
Cc1ccc2c(c1)C(=O)C(=O)N2	VERO	-	virus yield	>50 µM
OC[C@H]1O[C@@H](c2cc(Cl)nc3cc(Cl)c(Cl)cc23)C(O)C1O	HFF	-	virus yield	<31 µM
Cc1cc([C@H]2C[C@H](O)[C@@H](CO)O2)c(Cl)cc1F	E6SM	KOS	cytopathic effect	>400 µg/mL
Cn1cc(C(=O)NCc2ccc(Cl)cc2)c(=O)c2cc(CN3CCOCC3)ccc21	HFF	B-2006 (acyclovir-resistant)	plaque count	4.2 µM
Nc1nc2c(ncn2CCC(CO)CO)c(=O)[nH]1	MRC-5	Clinical isolate	hybridisation	0.3 µg/mL
Fc1ccc(-c2nn3c(c2-c2ccnc(NC4CCCC4)n2)CC=[N+]=C3N2CCCC2)cc1	-	-	hybridisation	2 µM
O=C1C=C2[C@@H]3C4C(=CC(O)=CC4O[C@H]3c3ccc(O)cc3)C34C(c5ccc(O)cc5)[C@@H]3c3c(O)cc(O)cc3[C@@H]3[C@@H](c5ccc(O)cc5)[C@@H]1C(=O)C234	VERO	-	MTT	12.2 µM
CS(=O)(=O)Nc1cccc(-c2cc3c(-c4ccnc(NC5CCCC5)n4)ccc(NC4CCCC4)n3n2)c1	VERO 76	SC16	antigen / hybridisation	2.09 µM
Nc1ncnc2c1ncn2[C@@H]1O[C@H](CO)[C@@H](O)[C@@H]1O	HSF	KOS	cytopathic effect	15 µg/mL
NC(N)=N/N=C1/C/C(=N\N=C(N)N)c2cc3ccccc3cc21	HEP-2	13 (S11)	virus yield	6 µM
COc1cc(OC)c(NC(=S)Nc2ccc(NC(=O)c3ccccc3F)cc2Cl)cc1Cl	HFF	Patton	ELISA	0.2 µg/mL
O=C1Nc2ccccc2C1=O	VERO	-	virus yield	>50 µM
O=c1[nH]c(=O)n([C@H]2C[C@H](O)[C@@H](CO)O2)cc1I	BALB/3T3	KOS	cytopathic effect	0.1 µg/mL

A second listing of 3 rows from above:

SMILES | cell line | strain | read by | result
Nc1nc2c(ncn2CCC(CO)CO)c(=O)[nH]1 | MRC-5 | Clinical isolate | hybridisation | 0.3 µg/mL
CCCCC(C)(C)[C@H](O)/C=C/[C@H]1C=CC(=O)[C@@H]1CCCCCCC(=O)O | HFF | H198 | hybridisation | 4.6 µg/mL
Cc1ccc(Cc2c(O)cc(O)cc2[C@@H]2c3c(cc(O)cc3[C@H](C)[C@@H](c3ccc(O)cc3)c3c(O)cc(O)cc3C[C@H](Oc3cccc(O)c3)c3ccc(O)cc3)O[C@H]2c2ccc(O)cc2)cc1.O | VERO | - | MTT | 17.9 µM

Conditions beyond the fields shown may differ between rows. ECn is the concentration giving n% inhibition of infection, replication or growth.